{"source": "PubChem BioAssay AID504761 (Drosophila RNAi Screening Center, 2011)", "test": "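Insect host genes that dengue virus relies on to spread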 (primary screen)", "system": "D.Mel-2 cells from Drosophila", "reagent": "long dsRNA against Drosophila genes", "treatment": "infection with dengue virus type 2; dose and infection time not stated", "measurement": "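Cells stained for dengue envelope protein and imaged; percent of infected cells per well on duplicate plates, ranked by infection, with stained nuclei counted for cell number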", "scale": "infection score: higher = more virus-infected cells; cell count: higher = more cells in the well", "call rule": "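Very low infection ranking in both replicate wells (chance probability at most 0.065), then a retest showing infection dropped 1.5-fold or more at p below 0.05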", "meaning of the calls": "active = confirmed: knock-down lowers infection; inactive = not picked or not confirmed", "note": "The screen tested about 22,000 reagents; below is a random part of those with a known target gene and a result. Over the whole deposit, 116 (0.52%) were called active. 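Calls depend on retest data that are not deposited; infection was ranked per plate without normalising between plates; the unit of the infection score is not given.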 The raw values are shown without normalisation. Further read-outs or replicates are left out here. Reagent sequences are not shown. Not stated in the record: the amount of reagent, the time to read-out."}
{"Gene": "CG16787", "DRSC id": "DRSC04282", "infection score, replicate 1": 11.4, "cell count, replicate 1": 3057, "outcome": "inactive"}
{"Gene": "obst-J (obstructor-J)", "DRSC id": "DRSC10821", "infection score, replicate 1": 3.41, "cell count, replicate 1": 6827, "outcome": "inactive"}
{"Gene": "obst-J (obstructor-J)", "DRSC id": "DRSC28354", "infection score, replicate 1": 22.1, "cell count, replicate 1": 5778, "outcome": "inactive"}
{"Gene": "Cbs (Cystathionine beta-synthase)", "DRSC id": "DRSC20553", "infection score, replicate 1": 2.55, "cell count, replicate 1": 6538, "outcome": "inactive"}
{"Gene": "bi (bifid)", "DRSC id": "DRSC18742", "infection score, replicate 1": 8.35, "cell count, replicate 1": 5686, "outcome": "inactive"}
{"Gene": "bi (bifid)", "DRSC id": "DRSC28848", "infection score, replicate 1": 22.4, "cell count, replicate 1": 3368, "outcome": "inactive"}
{"Gene": "CG6204", "DRSC id": "DRSC15991", "infection score, replicate 1": 8.04, "cell count, replicate 1": 6219, "outcome": "inactive"}
{"Gene": "CG11400", "DRSC id": "DRSC06070", "infection score, replicate 1": 15.9, "cell count, replicate 1": 6120, "outcome": "inactive"}
{"Gene": "ball (ballchen)", "DRSC id": "DRSC14145", "infection score, replicate 1": 19.3, "cell count, replicate 1": 4679, "outcome": "inactive"}
{"Gene": "ball (ballchen)", "DRSC id": "DRSC26607", "infection score, replicate 1": 4.7, "cell count, replicate 1": 4600, "outcome": "inactive"}
{"Gene": "CG8187", "DRSC id": "DRSC07099", "infection score, replicate 1": 23.3, "cell count, replicate 1": 6153, "outcome": "inactive"}
{"Gene": "CG13059", "DRSC id": "DRSC09942", "infection score, replicate 1": 2.74, "cell count, replicate 1": 4784, "outcome": "inactive"}
{"Gene": "CG15651", "DRSC id": "DRSC04242", "infection score, replicate 1": 7.5, "cell count, replicate 1": 6803, "outcome": "inactive"}
{"Gene": "CG13634", "DRSC id": "DRSC14635", "infection score, replicate 1": 0.33, "cell count, replicate 1": 608, "outcome": "inactive"}

Records listed so far whose gene name starts with B or b (4):
{"Gene": "bi (bifid)", "DRSC id": "DRSC18742", "infection score, replicate 1": 8.35, "cell count, replicate 1": 5686, "outcome": "inactive"}
{"Gene": "bi (bifid)", "DRSC id": "DRSC28848", "infection score, replicate 1": 22.4, "cell count, replicate 1": 3368, "outcome": "inactive"}
{"Gene": "ball (ballchen)", "DRSC id": "DRSC14145", "infection score, replicate 1": 19.3, "cell count, replicate 1": 4679, "outcome": "inactive"}
{"Gene": "ball (ballchen)", "DRSC id": "DRSC26607", "infection score, replicate 1": 4.7, "cell count, replicate 1": 4600, "outcome": "inactive"}
